A mixed list of measured activities; the numbers were collected in NIAID ChemDB.

All rows: whole-cell or culture tests; organism: Mycobacterium tuberculosis

Blank or dashed fields: not listed here.

smiles,method,strain,tested at,endpoint,result
O=C(C/C=C/c1ccccc1)Nc1ccc(N2CCSCC2)cc1,,103471,,MIC,>16 µg/mL
CO[C@H]1/C=C/O[C@@]2(C)Oc3c(C)c(O)c4c(O)c(c(C=NN5CCCCC5)c(O)c4c3C2=O)NC(=O)/C(C)=C\C=C\[C@H](C)[C@H](O)[C@@H](C)[C@@H](O)[C@@H](C)[C@H](OC(C)=O)[C@@H]1C,,H37Rv,,EC50,0.05 µg/mL
Cc1ccc2nc3cc(C)c(=O)cc-3sc2c1,BACTEC,H37Rv,,MIC bound,≤12.5 µg/mL
CC(=O)c1cn(O)nn1,,H37Rv,,MIC,>12.5 µg/mL
CCN(CC)c1ccc2nc3c4ccccc4c(=O)cc-3n(-c3ccccc3)c2c1,BACTEC,H37Rv,,MIC bound,≤12.5 µg/mL
CC[C@H]1OC(=O)[C@H](C)[C@@H](O[C@H]2C[C@@](C)(OC)[C@@H](O)[C@H](C)O2)[C@H](C)[C@@H](O[C@@H]2O[C@H](C)C[C@H](N(C)C)[C@H]2O)[C@](C)(OC)C[C@@H](C)C(=O)[C@H](C)[C@@H](O)[C@]1(C)O,,H37Ra,,Mean MIC,1.5 µg/mL
Cc1ccc(-c2ccc(Cl)cc2)n1Cc1ccccc1,,H37Rv,,MIC,<12.5 µg/mL
O=C1C[C@@H](c2ccccc2)NCCCCN(O)CCCN1,BACTEC,H37Rv,,MIC,≥12.5 µg/mL
CN[C@@H]1[C@H](O[C@H]2[C@H](O[C@H]3[C@H](O)[C@@H](O)[C@H](N=C(N)N)[C@@H](O)[C@@H]3N=C(N)N)O[C@@H](C)[C@]2(O)C=O)O[C@@H](CO)[C@H](O)[C@H]1O,,H37Rv,,Mean MIC,0.26 µg/mL
Cc1ccc(C)n1C1CCCCC1,,103471,,MIC,4 µg/mL
C[C@]12CCC(=O)C=C1CC[C@@H]1[C@@H]2C(O)C[C@@]2(C)[C@H]1CC[C@]2(O)C(=O)COC(=O)c1ccc([N+](=O)[O-])cc1Cl,BACTEC,H37Rv,,MIC bound,>12.5 µg/mL
CC[C@@H](CO)NCCN[C@@H](CC)CO,broth dilution,H37Rv (ATCC 35811),,MIC,8 µg/mL
C[C@@H]1OC(NNC(=O)c2ccncc2)[C@@H](O)[C@@H](O)[C@@H]1O,,H37Rv (ATCC 27294),,MIC90,0.62 µg/mL
COc1ccc2cc1-c1cc(ccc1O)C[C@H]1c3cc4c(cc3CCN1C)Oc1c(OC)cc3c(c1O4)[C@@H](C2)N(C)CC3,resazurin,H37Rv,,MIC,3.1 µg/mL
COC(=O)N1C=Cc2c(c(C)c3c([nH]c4ccccc43)c2C)C1C,resazurin,H37Rv,6.25 µg/mL,inhibition,60%
CO[C@H]1/C=C/O[C@@]2(C)Oc3c(C)c(O)c4c(O)c(c(/C=N/Nc5ccc(C(=O)O)cc5)c(O)c4c3C2=O)NC(=O)/C(C)=C\C=C\[C@H](C)[C@H](O)[C@@H](C)[C@@H](O)[C@@H](C)[C@H](OC(C)=O)[C@@H]1C,,H37Rv,,EC50,>5 µg/mL
COc1ccc(C(=O)c2cn(-c3ccc(Cl)cc3)nn2)cc1,,H37Rv,,MIC,>12.5 µg/mL
CN[C@@H]1[C@@H](O)[C@@H](O[C@@H]2[C@@H](O)[C@H](O[C@H]3O[C@H](CN)CC[C@H]3N)[C@@H](N)C[C@H]2N)OC[C@]1(C)O,,H37Ra,,Mean MIC,7 µg/mL
C=CC(C)(O)CC/C=C(\C)CCCC(C)(O)CCCC(C)(O)CCCC(C)(O)CCCC(C)(O)CCCC(C)(O)CCCC(C)(O)CCCC(C)(O)CCCC(C)(O)CCCC(C)(O)CCC=C(C)C,,H37Rv,,MIC,>128 µg/mL
CC1COc2c(N3CCN(C)CC3)c(F)cc3c(=O)c(C(=O)O)cn1c23,broth dilution,H37Rv (ATCC 25618),,MIC,1 µg/mL
CCCCCCn1c(C)c(CN2CCN(C)CC2)c(CN2CCN(C)CC2)c1-c1ccc(Cl)cc1,,H37Rv,,EC50,<12.5 µg/mL
N#CC(O[C@@H]1O[C@H](CO[C@@H]2O[C@H](CO)[C@@H](O)[C@H](O)[C@H]2O)[C@@H](O)[C@H](O)[C@H]1O)c1ccccc1,BACTEC,H37Rv,,MIC,≥12.5 µg/mL
CO[C@H]1/C=C/O[C@@]2(C)Oc3c(C)c(O)c4c(O)c(c(/C=N/N5CCNCC5)c(O)c4c3C2=O)NC(=O)/C(C)=C\C=C\[C@H](C)[C@H](O)[C@@H](C)[C@@H](O)[C@@H](C)[C@H](OC(C)=O)[C@@H]1C,,H37Rv,,EC50,2 µg/mL
CC(=O)SCC1CS1,,H37Rv,,MIC,0.4–0.8 µg/mL
O=C(NNC1O[C@@H](CO)[C@@H](O[C@@H]2O[C@H](CO)[C@H](O)[C@H](O)[C@H]2O)[C@H](O)[C@@H]1O)c1ccncc1,,H37Rv (ATCC 27294),,MIC90,2.5 µg/mL
COc1cc(/C=N/NC(=O)C(N)Cc2ccc(O)cc2)ccc1O,BACTEC,H37Rv,,MIC bound,>12.5 µg/mL
CCCCCCn1c(C)ccc1-c1ccc(Cl)cc1,,103471,,MIC,4 µg/mL
O=C1c2c(Cl)c(Cl)c(Cl)c(Cl)c2C(=O)N1c1ncc([N+](=O)[O-])s1,resazurin,H37Rv,6.25 µg/mL,inhibition,72%
NNC(=O)c1ccncc1,broth dilution,H37Rv (ATCC 27294),,MIC,0.03 µg/mL
Cc1onc(-c2ccccc2Cl)c1C(=O)N[C@@H]1C(=O)N2[C@@H]1SC(C)(C)[C@@H]2C(=O)O,,H37Ra,,Median MIC,64 µg/mL
C[C@@H]1OC(NNC(=O)c2ccncc2)[C@H](O)[C@@H](O)[C@H]1O,,H37Rv (ATCC 27294),,MIC90,0.62 µg/mL
O=C(Oc1ccc(Cl)cc1)c1cn(-c2ccccc2)nn1,,H37Rv,,MIC,>12.5 µg/mL
C/C(=N\NC(=O)C[N+](C)(C)C)C(CN(C)C)C(=O)Nc1ccccc1.[Cl-],BACTEC,H37Rv,,MIC bound,>12.5 µg/mL
CC(C)[C@@H](C)/C=C/[C@@H](C)[C@H]1CCC2[C@@]34C=C[C@]5(C[C@@H](O)CC[C@]5(C)C3CC[C@@]21C)OO4,,H37Rv,,MIC,1 µg/mL
CCCCCCn1c(C)c(CN2CCOCC2)c(CN2CCOCC2)c1-c1ccc(Cl)cc1,,H37Rv,,MIC,<12.5 µg/mL
Cl/N=C1C=C/C(=N\Cl)C(Cl)=C\1,BACTEC,H37Rv,12.5 µg/mL,inhibition,26%
C=CC(C)(O)CC/C=C(\C)CC/C=C(\C)CCCC(C)(O)CCCC(C)(O)CCCC(C)(O)CCCC(C)(O)CCCC(C)(O)CCCC(C)(O)CCC=C(C)C,,H37Rv,,MIC,>128 µg/mL
CO[C@H]1/C=C/O[C@@]2(C)Oc3c(C)c(O)c4c(O)c(c(/C=N/c5nccs5)c(O)c4c3C2=O)NC(=O)/C(C)=C\C=C\[C@H](C)[C@H](O)[C@@H](C)[C@@H](O)[C@@H](C)[C@H](OC(C)=O)[C@@H]1C,,H37Rv,,EC50,5 µg/mL
CO[C@H]1/C=C/O[C@@]2(C)Oc3c(C)c(O)c4c(O)c(c5c(c4c3C2=O)NC2(CCN(CC(C)C)CC2)N=5)=NC(=O)/C(C)=C\C=C\[C@H](C)[C@H](O)[C@@H](C)[C@@H](O)[C@@H](C)[C@H](OC(C)=O)[C@@H]1C,,1 isolates (Gln513Pro),,MIC,>5 µg/mL
CC1COc2c(N3CCN(C(N)=NC#N)CC3)c(F)cc3c(=O)c(C(=O)O)cn1c23,broth dilution,H27Rv,,MBC,0.625 µg/mL
NC(=O)c1ccc(NC(=O)CCC(=O)Nc2ccc(C(N)=O)cn2)nc1,resazurin,H37Rv,6.25 µg/mL,inhibition,12%
CC1(C)CC[C@]2(C(=O)O)CC[C@]3(C)C(CC[C@@H]4[C@@]5(C)C[C@H](O)CC(C)(C)[C@@H]5CC[C@]43C)[C@@H]2C1,resazurin,STR-R (ATCC 35820),,MIC,50 µg/mL
Cc1[nH]n(C(N)=S)c(=O)c1N=Nc1c(Cl)cccc1Cl,BACTEC,H37Rv,12.8 µg/mL,inhibition,27%
CCCCCCn1c(C)cc(CN2CCOCC2)c1C,,H37Rv,,MIC,<12.5 µg/mL
CO[C@H]1/C=C/O[C@@]2(C)Oc3c(C)c(O)c4c(O)c(c(C=Nc5ccc(Cl)cc5)c(O)c4c3C2=O)NC(=O)/C(C)=C\C=C\[C@H](C)[C@H](O)[C@@H](C)[C@@H](O)[C@@H](C)[C@H](OC(C)=O)[C@@H]1C,,H37Rv,,EC50,>5 µg/mL
CN1CCN(c2ccccc2NCc2ccc(Cl)cc2)CC1,,103471,,MIC,>16 µg/mL
CC(C)N=c1cc2n(-c3ccc(Cl)cc3)c3ccccc3nc-2cc1Nc1ccc(Cl)cc1,,92-0492 (MDR),,MIC,0.4 µg/mL
CO[C@H]1/C=C/O[C@@]2(C)Oc3c(C)c(O)c4c(O)c(c(/C=N/N5CCN(C)CC5)c(O)c4c3C2=O)NC(=O)/C(C)=C\C=C\[C@H](C)[C@H](O)[C@@H](C)[C@@H](O)[C@@H](C)[C@H](OC(C)=O)[C@@H]1C,,H37Ra,,Median MIC,0.0047 µg/mL
COC(=O)C1C(OC(C)=O)C(C)C(O)C(C)(O)/C=C(\C)C2=C3C(=C(C)C(=O)c4c(O)c(c(C)c(OC(C)=O)c43)NC(=O)/C(C)=C/C=C\[C@](C)(O)C(O)[C@@H](C)C1O)OCO2,,INH-r,,MIC,1.6 µg/mL
CO[C@H]1/C=C/O[C@@]2(C)Oc3c(C)c(O)c4c(O)c(c(/C=N/N5CCN(C/C=C/c6ccccc6)CC5)c(O)c4c3C2=O)NC(=O)/C(C)=C\C=C\[C@H](C)[C@H](O)[C@@H](C)[C@@H](O)[C@@H](C)[C@H](OC(C)=O)[C@@H]1C,,3064 (rifampin-sensitive),,MBC,0.2 µg/mL
Cc1coc(C)c1C(=O)c1cn(-c2ccc(Cl)cc2)nn1,,H37Rv,12.5 µg/mL,inhibition,0%
c1ccc(-c2ccc(CNc3cccc(N4CCSCC4)c3)cc2)cc1,,103471,,MIC,>16 µg/mL
CCCCCCn1c(C)cc(CN2CCN(C)CC2)c1C,,H37Rv,,MIC,<12.5 µg/mL
c1ccc(-c2ccc(CNc3ccccc3N3CCSCC3)cc2)cc1,,103471,,MIC,>16 µg/mL
CCOC(=O)c1c(N)oc(=O)c2c1-c1ccccc1C2=O,BACTEC,H37Rv,,MIC bound,>12.5 µg/mL
NCC[C@H](O)C(=O)N[C@@H]1C[C@H](N)[C@@H](O[C@H]2O[C@H](CN)[C@@H](O)[C@H](O)[C@H]2O)[C@H](O)[C@H]1O[C@H]1O[C@H](CO)[C@@H](O)[C@H](N)[C@H]1O,,90-0201 (DRUG-SUS),,MIC,0.5 µg/mL
CCCCCCn1c(-c2ccc(Cl)cc2)cc(CN2CCOCC2)c1C,,103471,,MIC,8 µg/mL
C[C@]12Cc3cn4ncnc4nc3CC1CC[C@@H]1[C@@H]2CC[C@]2(C)C(O)CC[C@@H]12,,H37Rv,,MIC bound,>6.25 µg/mL
C=CC(C)(O)CC/C=C(\C)CCC(O)C(C)(O)CCCC(C)(O)CCCC(C)(O)CCCC(C)(O)CCCC(C)(O)CCCC(C)(O)CCC=C(C)C,,H37Rv,,MIC,>128 µg/mL
NNC(=O)c1ccncc1,,H37Rv,,MIC,0.02 µg/mL
CCCCC(=O)N/N=C/c1ccc([N+](=O)[O-])s1,BACTEC,H37Rv,,MIC bound,≤12.5 µg/mL
C=CC(C)(O)CC/C=C(\C)CCCC(C)(O)CCCC(C)(O)CCCC(C)(O)CCCC(C)(O)CCCC(C)(O)CCCC(C)(O)CCC=C(C)C,,H37Rv,,MIC,15 µg/mL
CCC[CH2][Sn]([CH2]CCC)([O]C(=O)c1ccc(OC)c(OC)c1OC)[O][Sn]([CH2]CCC)([CH2]CCC)[O]C(=O)c1ccc(OC)c(OC)c1OC,resazurin,H37Rv,,MIC bound,>6.25 µg/mL
CO[C@H]1/C=C/O[C@@]2(C)Oc3c(C)c(O)c4c(O)c(/c(=C/NN=O)c(O)c4c3=C2O)NC(=O)/C(C)=C\C=C\[C@H](C)[C@H](O)[C@@H](C)[C@@H](O)[C@@H](C)[C@H](OC(C)=O)[C@@H]1C,,H37Rv,,EC50,>5 µg/mL
COc1cc2ccc1OCc1cccc(n1)COc1ccc(cc1OC)C=NCCNCCN=C2,BACTEC,H37Rv,,MIC bound,≤12.5 µg/mL
CC(=O)N[C@H]1C(NNC(=O)c2ccncc2)O[C@@H](CO)[C@@H](O)[C@@H]1O,,H37Rv (ATCC 27294),,MIC90,>100 µg/mL
CC(=O)c1c(C)c2c(C)cc3oc(=O)c(C(C)=O)c(C)c3c2oc1=O,BACTEC,H37Rv,,MIC bound,>12.5 µg/mL
CC1COc2c(N3CCN(C)CC3)c(F)cc3c(=O)c(C(=O)O)cn1c23,,90-0216 (DRUG-SUS),,MIC,0.5 µg/mL
O=Nc1c(O)[nH]c2ccc(Cl)c(Cl)c12,resazurin,,6.25 µg/mL,inhibition,-16%
CO[C@H]1/C=C/O[C@@]2(C)Oc3c(C)c(O)c4c(O)c(c5c(c4c3C2=O)NC2(CCN(CC(C)C)CC2)N=5)=NC(=O)/C(C)=C\C=C\[C@H](C)[C@H](O)[C@@H](C)[C@@H](O)[C@@H](C)[C@H](OC(C)=O)[C@@H]1C,,2230 (rifampin-resistant),,MIC,0.2 µg/mL

Again, the opening 5 rows:

{"smiles": "O=C(C/C=C/c1ccccc1)Nc1ccc(N2CCSCC2)cc1", "strain": "103471", "endpoint": "MIC", "result": ">16 µg/mL"}
{"smiles": "CO[C@H]1/C=C/O[C@@]2(C)Oc3c(C)c(O)c4c(O)c(c(C=NN5CCCCC5)c(O)c4c3C2=O)NC(=O)/C(C)=C\\C=C\\[C@H](C)[C@H](O)[C@@H](C)[C@@H](O)[C@@H](C)[C@H](OC(C)=O)[C@@H]1C", "strain": "H37Rv", "endpoint": "EC50", "result": "0.05 µg/mL"}
{"smiles": "Cc1ccc2nc3cc(C)c(=O)cc-3sc2c1", "method": "BACTEC", "strain": "H37Rv", "endpoint": "MIC bound", "result": "≤12.5 µg/mL"}
{"smiles": "CC(=O)c1cn(O)nn1", "strain": "H37Rv", "endpoint": "MIC", "result": ">12.5 µg/mL"}
{"smiles": "CCN(CC)c1ccc2nc3c4ccccc4c(=O)cc-3n(-c3ccccc3)c2c1", "method": "BACTEC", "strain": "H37Rv", "endpoint": "MIC bound", "result": "≤12.5 µg/mL"}

Percent inhibition refers to the dose given; in toxicity tests it is the harm to the cells. ECn is the concentration giving n% inhibition of infection, replication or growth. Neighbouring rows are from separate reports. MIC50, MIC90 and the like: level of inhibition, or share of isolates inhibited. Two numbers with a dash give a range or band. MIC bound comes from a single tested concentration.